Results: paper PMC4108184

Assays:
[1] = test system: O=C1O[C@H](COP(=O)(O)O)[C@H](O)[C@H]1O; experiment: purified protein; settings: 2.5 mM Bicine pH 8.3, 0.2 M NaCl, zinc enzyme
[2] = test system: O=C1O[C@@H](COP(=O)(O)O)[C@H](O)[C@H]1O; experiment: purified protein; settings: 2.5 mM Bicine pH 8.3, 0.2 M NaCl, zinc enzyme

| Substance | Km [1] | kcat [1] | kcat/Km [1] | Km [2] | kcat [2] | kcat/Km [2] |
| --- | --- | --- | --- | --- | --- | --- |
| Ms0025 (MS53_0025) (Mycoplasmopsis synoviae 53; E34Q) | 700 ± 100 µM | 0.9 s⁻¹ | 1300 M⁻¹ s⁻¹ | 1800 ± 200 µM | 0.58 s⁻¹ | 320 M⁻¹ s⁻¹ |
| Ms0025 (MS53_0025) (Mycoplasmopsis synoviae 53; H100N) | 2700 ± 200 µM | – | – | 830 ± 60 µM | 0.64 s⁻¹ | 770 M⁻¹ s⁻¹ |
| Ms0025 (MS53_0025) (Mycoplasmopsis synoviae 53; K29A) | 1400 ± 100 µM | 1.1 s⁻¹ | 790 M⁻¹ s⁻¹ | 750 ± 70 µM | 0.42 s⁻¹ | 560 M⁻¹ s⁻¹ |
